Like-named read-outs stand apart in the source and are kept apart here.
Experiments:
[1] = tested on: recombinant RSV A2-line19F, N protein mutants
[2] = tested on: recombinant RSV A2-line19F, N protein mutants; experiment: microbe, parasite or virus in culture; conditions: human respiratory syncytial virus
[3] = tested on: RSV-A Long EDP-938 resistant clones; type: cell-based, respiratory syncytial virus
[4] = recombinant RSV N Q102L/M109T/I129M
[5] = HEp-2, recombinant RSV N I129L/L139I
[6] = HEp-2, recombinant RSV N Q102L/I129M
[7] = HEp-2, recombinant RSV N Q102L/M109T
[8] = HEp-2, recombinant RSV N Q102L/M109T/I129M
[9] = RSV-A Long resistant clone #1, N: Q102L, M109T, I129M, G: K205G, K213G, T219A
[10] = RSV-A Long resistant clone #2, N: T29S, S134T
[11] = RSV-A Long resistant clone #3, N: S134T
[12] = RSV-A Long resistant clone #4, N: V90A, S134T
[13] = RSV-A Long resistant clone #5, N: M109I, G: R8H
[14] = RSV-A Long resistant clone #6, N: M109K
[15] = RSV-A Long resistant clone #7, N: K136R

| Compound | EC50 Fold Change vs. WT ([1]; recombinant RSV N I129L) | EC50 Fold Change vs. WT ([1]; recombinant RSV N I129L/L139I) | EC50 Fold Change vs. WT ([1]; recombinant RSV N I129M) | EC50 Fold Change vs. WT ([1]; recombinant RSV N Q102L) | EC50 Fold Change vs. WT ([1]; recombinant RSV N Q102L/I129M) | EC50 Fold Change vs. WT ([1]; recombinant RSV N Q102L/M109T) | EC50 Fold Change vs. WT [1, 4] | EC50 ([2]; HEp-2, recombinant RSV N I129L) | EC50 [2, 5] | EC50 ([2]; HEp-2, recombinant RSV N I129M) | EC50 ([2]; HEp-2, recombinant RSV N Q102L) | EC50 [2, 6] | EC50 [2, 7] | EC50 [2, 8] | EC50 Fold Change vs. WT ([3]; RSV-A Long Wild-Type (WT)) | EC50 Fold Change vs. WT [3, 9] | EC50 Fold Change vs. WT [3, 10] | EC50 Fold Change vs. WT [3, 11] | EC50 Fold Change vs. WT [3, 12] | EC50 Fold Change vs. WT [3, 13] | other results |
| --- | --- | --- | --- | --- | --- | --- | --- | --- | --- | --- | --- | --- | --- | --- | --- | --- | --- | --- | --- | --- | --- |
| O=C1Nc2ccccc2C(c2ccccc2)=N[C@@H]1Nc1nnc(-c2ncc(C(F)(F)F)cc2N2CCOCC2)o1 [EDP-938] | 5.1 fold | 13.9 fold | 3.7 fold | 2.0 fold | 2.2 fold | 2.6 fold | 42.4 fold | 233 ± 127 nM | 626 ± 139 nM | 170 ± 18 nM | 90 ± 10 nM | 100 ± 6 nM | 116 ± 68 nM | 1930 nM | 1 fold | 60 fold | 3.3 fold | 2.6 fold | 3.8 fold | 3.1 fold | EC50 ([2]; HEp-2, recombinant RSV N Q102L/M109T/I129M triple mutant): ~2000 nM; EC50 Fold Change vs. WT [3, 14]: 67 fold; EC50 Fold Change vs. WT [3, 15]: 2.7 fold |
| Cc1cn2nc([C@@H]3CCCCN3C(=O)c3cc(Cl)ccc3NS(C)(=O)=O)cc2nc1N1CC[C@H](N)C1 [GS-5806] | 0.9 fold | 0.8 fold | 3.2 fold | 0.3 fold | 4.8 fold | 1.9 fold | 2.3 fold | 0.12 ± 0.09 nM | 0.1 ± 0.1 nM | 0.41 ± 0.4 nM | 0.04 nM | 0.63 ± 0.65 nM | 0.25 ± 0.18 nM | 0.3 ± 0.26 nM | 1 fold | 0.7 fold | 0.9 fold | 0.8 fold | 1.5 fold | 1.5 fold | EC50 Fold Change vs. WT [3, 14]: <0.23 fold; EC50 Fold Change vs. WT [3, 15]: 1.2 fold |
| O=C(Nc1ccccc1F)N[C@H]1N=C(c2ccccc2)c2ccccc2NC1=O [RSV-604] | 5.6 fold | 15.4 fold | 4.4 fold | 1.2 fold | 2.8 fold | 2.1 fold | 5.6 fold | 6430 nM | 17800 nM | 5060 nM | 1340 nM | 3230 nM | 2430 nM | 6410 nM | 1 fold | 4.6 fold | 3.1 fold | 2 fold | 3.2 fold | 0.7 fold | EC50 Fold Change vs. WT [3, 14]: 3.3 fold; EC50 Fold Change vs. WT [3, 15]: 2.2 fold |

From PMC7993833, “EDP-938, a novel nucleoprotein inhibitor of respiratory syncytial virus, demonstrates potent antiviral activities in vitro and in a non-human primate model” (PLoS Pathogens, 2021)
